Pooled drug test results. Numbers come from NIAID ChemDB, via PubChem.

Shared fields: growth or infection tests; species: Herpes simplex virus 1; read-out: EC50

ECn is the concentration giving n% inhibition of infection, replication or growth. Conditions beyond the fields shown may differ between rows. a–b is a range or a potency band.

CC(=O)N[C@@H](CC(C)C)C(=O)N[C@@H](CC(C)C)C(=O)N[C@H](C=O)CCCN=C(N)N ; read by: plaque count ; cell line: CV-1 ; strain or isolate: Fukuda ; result: 20–40 µM
CC1(C)[C@@H](CCO)C[C@H]1n1cnc2c(=O)[nH]c(N)nc21 ; read by: cytopathic effect ; cell line: E6SM ; strain or isolate: TK-/B2006 ; result: 300 µg/mL
O=C(O)CP(=O)(O)O ; read by: plaque count ; cell line: VERO ; strain or isolate: PAA-resistant ; result: 166.8 µg/mL
Nc1ncnc2c1ncn2[C@@H]1O[C@H](CO)[C@@H](O)[C@@H]1O ; read by: plaque count ; cell line: HFF ; strain or isolate: P ; result: 44 µg/mL
Cc1cn(C2CC(O[N+](=O)[O-])C(CO)O2)c(=O)[nH]c1=O ; read by: cytopathic effect ; cell line: E6SM ; strain or isolate: KOS ACV-R (TK-) ; result: >400 µg/mL
O=c1[nH]c(=O)n([C@H]2C[C@@H](CO)[C@H](O)C2)cc1I ; read by: cytopathic effect ; cell line: PRK ; strain or isolate: B2006 (TK-) ; result: >400 µg/mL
CCCCCCCCCCCCCCCCOP(=O)(O)CO[C@H](CO)Cn1ccc(N)nc1=O ; read by: plaque count ; cell line: HFF ; strain or isolate: F ; result: 0.3 µM
CC(C)C[C@H](NC(=O)[C@@H]1O[C@H]1C(=O)O)C(=O)NCCCCN=C(N)N ; read by: plaque count ; cell line: CV-1 ; strain or isolate: Fukuda ; result: >40 µM
COC(=O)[C@H](C)NP(=O)(OCC1C/C1=C/n1cnc2c(N)ncnc21)Oc1ccccc1 ; read by: cytopathic effect ; cell line: HFF ; result: <0.07 µM
Nc1nc2c(ncn2N2C[C@H](CO)[C@H]2CO)c(=O)[nH]1 ; read by: cytopathic effect ; cell line: VERO ; result: 5.36 µg/mL
CC(=O)OC[C@H]1[C@H](COC(C)=O)[C@@H](COC(C)=O)O[C@H]1n1cnc2c(N)ncnc21 ; read by: plaque count ; cell line: MEF ; strain or isolate: E-377 ; result: 123 µM
O=c1[nH]c(=O)n([C@H]2C[C@H](O)[C@@H](CO)O2)cc1/C=C/Br ; read by: cytopathic effect ; cell line: PRK ; strain or isolate: F ; result: 0.02 µg/mL
Nc1nc2c(ncn2C[C@]2(CO)C[C@H]2CO)c(=O)[nH]1 ; read by: plaque count ; cell line: BALB/3T3 ; strain or isolate: KOS ; result: 0.0013 µg/mL
Nc1nc2c(ncn2CCC(CO)CO)c(=O)[nH]1 ; read by: plaque count ; cell line: VERO ; strain or isolate: C1 (101) ; result: 1.1 µg/mL
O=c1[nH]c(=O)n([C@@H]2O[C@H](CO)[C@@H](O)[C@@H]2O)cc1/C=C/Br ; read by: cytopathic effect ; cell line: BALB/3T3 ; strain or isolate: KOS ; result: 0.06 µg/mL
CCCCCCCCCCCCCCCCCOC[C@H](COP1(=O)CO[C@@H](Cn2ccc(N)nc2=O)CO1)OCc1ccccc1 ; read by: plaque count ; cell line: HFF ; strain or isolate: HL-3 ; result: >1 µM
CCc1cn([C@H]2C[C@H](O)[C@@H](CO)O2)c(N)nc1=O ; read by: cytopathic effect ; cell line: PRK ; strain or isolate: F ; result: >400 µg/mL
O=c1[nH]c(=O)n([C@H]2C[C@H](O)[C@@H](CO)O2)cc1I ; read by: cytopathic effect ; cell line: VERO ; strain or isolate: KOS ; result: 0.7 µg/mL
O=c1ccn([C@@H]2O[C@H](CO)[C@@H](O)[C@H]2O)c(=O)[nH]1 ; read by: plaque count ; cell line: VERO ; strain or isolate: 77 ; result: >1000 µM
CC1(C)[C@@H](CCO)C[C@H]1n1cnc2c(N)nc(N)nc21 ; read by: cytopathic effect ; cell line: E6SM ; strain or isolate: TK-/B2006 ; result: >400 µg/mL
O=c1[nH]c(=O)n([C@@H]2O[C@H](CO)[C@@H](O)[C@@H]2O)cc1/C=C/Br ; read by: plaque count ; cell line: VERO ; strain or isolate: V3 ; result: >1000 µM
O=c1[nH]c(=O)n(C2CC(O[N+](=O)[O-])C(CO)O2)cc1F ; read by: cytopathic effect ; cell line: E6SM ; strain or isolate: KOS ; result: >400 µg/mL
CCCCCCCCCCCCOCCCOP(=O)(O)CO[C@H](CO)Cn1ccc(N)nc1=O ; read by: plaque count ; cell line: HFF ; strain or isolate: E-377 ; result: 0.5 µM
O=c1[nH]c(=O)n(C2CC(CO)[C@@H](O)C2)cc1/C=C/Br ; read by: cytopathic effect ; cell line: PRK ; strain or isolate: McIntyre ; result: 0.07 µg/mL
O=c1c2cc(Cl)ccc2[nH]c2cc(O)cc(O)c12 ; cell line: VERO ; result: 22 µM
CC1(C)[C@@H](CCO)C[C@H]1n1nnc2c(=O)[nH]cnc21 ; read by: cytopathic effect ; cell line: E6SM ; strain or isolate: KOS ; result: >200 µg/mL
CC1(C)C(OC2O[C@H](C(=O)O)[C@@H](O)[C@H](NC3[C@@H](O)[C@H](O)[C@@H](CO)O[C@@H]3O)[C@H]2OC2O[C@H](O)[C@@H](O)[C@H](O)[C@H]2C(=O)O)CC[C@@]2(C)C1CC[C@]1(C)C2C(=O)C=C2C3C[C@@](C)(C(=O)O)CC[C@]3(C)CC[C@]21C ; read by: cytopathic effect ; cell line: VERO ; result: 125 µg/mL
CCCCC(=O)OC[C@H]1O[C@@H](n2cnc3c(N)ncnc32)[C@@H](O)[C@@H]1O ; read by: plaque count ; cell line: MEF ; strain or isolate: Clinical isolate HL-34 ; result: 31 µM
O=Cc1cn([C@@H]2O[C@H](CO)[C@@H](O)[C@@H]2O)c(=O)[nH]c1=O ; read by: plaque count ; cell line: HELF ; strain or isolate: 77 ; result: 80 µM
COc1cc2c(cc1OC)[C@@H]1C(N)CSCON1CC2 ; read by: cytopathic effect ; cell line: E6SM ; strain or isolate: VMW1837 (TK-/TK+) ; result: 0.02 µg/mL
Nc1ncnc2c1ncn2[C@@H]1O[C@H](CO)[C@@H](O)[C@@H]1O ; read by: plaque count ; cell line: RK-13 ; strain or isolate: MMUDR-resistant ; result: 19 µM
Nc1ncnc2c1ncn2[C@@H]1O[C@H](CO)[C@@H](O)[C@@H]1O ; read by: cytopathic effect ; cell line: PRK ; strain or isolate: KOS ; result: 4 µg/mL
O=c1[nH]c(=O)n([C@@H]2C[C@H](CO)[C@@H](O)C2)cc1I ; read by: cytopathic effect ; cell line: PRK ; strain or isolate: McIntyre ; result: 0.2 µg/mL
Nc1ccn(C[C@@H](CO)OCP(=O)(O)O)c(=O)n1 ; read by: plaque count ; cell line: HFF ; strain or isolate: HL-3 ; result: 3 µM
NC1CSCON2CCc3c([nH]c4ccccc34)[C@H]12 ; read by: cytopathic effect ; cell line: PRK ; strain or isolate: KOS ; result: 0.7 µg/mL
Cc1cn([C@@H]2O[C@H](CO)[C@@H](O)[C@@H]2O)c(=O)[nH]c1=O ; read by: plaque count ; cell line: HELF ; strain or isolate: 77 ; result: 0.24 µM
Cc1ccc2[nH]c3cc(O)cc(O)c3c(=O)c2c1 ; cell line: VERO ; result: 13 µM
Nc1nc(=O)n([C@@H]2O[C@H](CO)[C@@H](O)[C@@H]2F)cc1I ; read by: plaque count ; cell line: VERO ; strain or isolate: 77 ; result: 0.12 µM
Nc1ccn([C@@H]2O[C@H](CO)[C@@H](O)[C@@H]2O)c(=O)n1 ; read by: cytopathic effect ; cell line: VERO ; strain or isolate: KOS ; result: 0.15 µg/mL
O=c1[nH]c(=O)n([C@H]2C[C@H](O)[C@@H](COP(=O)(O)O)O2)cc1/C=C/c1cccc([N+](=O)[O-])c1 ; read by: cytopathic effect ; cell line: PRK ; strain or isolate: KOS ; result: >100 µg/mL
O=c1[nH]c(=O)n(C2CC(CO)[C@H](O)C2)cc1I ; read by: cytopathic effect ; cell line: PRK ; strain or isolate: F ; result: 0.1 µg/mL
CCCCCCCC/C=C\CCCCCCCOCCOP1(=O)CO[C@@H](Cn2ccc(N)nc2=O)CO1 ; read by: plaque count ; cell line: HFF ; strain or isolate: HL-3 ; result: 0.07 µM
COC(=O)C(Cc1c[nH]c2ccccc12)NP(=O)(O)OCC1C/C1=C/n1cnc2c(N)ncnc21 ; read by: plaque count ; cell line: VERO ; result: 31 µM
Nc1nc2c(ncn2CCCCO)c(=O)[nH]1 ; cell line: VERO ; result: 0.6 µM
CC1(C)[C@@H](CCO)C[C@H]1n1cnc2c(N)ncnc21 ; read by: cytopathic effect ; cell line: E6SM ; strain or isolate: TK-/VMW 1837 ; result: 100 µg/mL
CCCCCCCCCCCCCCCCCCOCCCOP1(=O)CO[C@@H](Cn2ccc(N)nc2=O)CO1 ; read by: plaque count ; cell line: HFF ; strain or isolate: E-377 ; result: 0.3 µM
[N-]=[N+]=Nc1cccc(/C=C/c2cn([C@H]3C[C@H](O)[C@@H](COP(=O)(O)O)O3)c(=O)[nH]c2=O)c1 ; read by: cytopathic effect ; cell line: PRK ; strain or isolate: F ; result: >200 µg/mL
O=c1[nH]c(=O)n([C@H]2C[C@H](O)[C@@H](CO)O2)cc1/C=C/Br ; read by: plaque count ; cell line: HELF ; strain or isolate: V3 ; result: 0.05 µM
NC1CCCON2CCc3c([nH]c4ccccc34)[C@H]12 ; read by: cytopathic effect ; cell line: PRK ; strain or isolate: B2006 (TK-) ; result: 2 µg/mL
C=Cc1cn([C@@H]2O[C@H](CO)[C@@H](O)[C@@H]2O)c(=O)[nH]c1=O ; read by: plaque count ; cell line: HELF ; strain or isolate: V3 ; result: 0.37 µM
Nc1nc2c(ncn2CCC(CO)CO)c(=O)[nH]1 ; read by: ELISA ; cell line: HEL ; strain or isolate: 20 clinical isolates ; result: 0.8 µg/mL